Measured values: PubChem BioAssay AID585 (National Center for Advancing Translational Sciences (NCATS), 2007)
The list shows a part of the results, in another mix than the full data. Active and inactive are the calls of the source. The call rests on the fitted dose curve.

Chains of the proteins cited; added tags and fusions are not shown.
UniProt P00811, whole entry: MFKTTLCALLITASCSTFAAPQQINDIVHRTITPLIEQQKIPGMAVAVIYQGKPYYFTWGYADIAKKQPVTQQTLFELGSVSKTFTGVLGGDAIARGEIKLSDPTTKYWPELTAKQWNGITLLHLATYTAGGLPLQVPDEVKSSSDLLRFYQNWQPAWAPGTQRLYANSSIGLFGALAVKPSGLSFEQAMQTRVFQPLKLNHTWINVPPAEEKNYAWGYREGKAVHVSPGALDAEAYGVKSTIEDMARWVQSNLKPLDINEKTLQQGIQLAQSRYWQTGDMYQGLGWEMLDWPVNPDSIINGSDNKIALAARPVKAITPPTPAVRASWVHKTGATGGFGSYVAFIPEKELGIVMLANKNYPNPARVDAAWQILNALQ

Target: Beta-lactamase (Escherichia coli (strain K12)) (UniProt P00811)
Assay: Promiscuous and Specific Inhibitors of AmpC Beta-Lactamase (assay without detergent); further: % of control where 0% means no effect
Conditions: AmpC nitrocefin hydrolysis, absorbance 480 nm, no detergent
Procedure: NIH Molecular Libraries Screening Centers Network [MLSCN]
NIH Chemical Genomics Center [NCGC]
PI Name: Shoichet, Brian K.
This aggregation profiling approach exploits the sensitivity of aggregate formation to detergent. Inhibition of b-lactamase is measured in the presence and absence of 0.01% Triton X-100. See Pubchem assay "Promiscuous and Specific Inhibitors of AmpC Beta-Lactamase (assay with detergent)" for related screen. Compounds that inhibit only in the absence of detergent are considered likely promiscuous aggregators.
A screen of 1,030 compounds was performed in Brian Shoichet's lab in 96-well format. AmpC activity was measured by following the absorbance at 480 nm. Nitrocefin is a chromogenic substrate: while nitrocefin is yellow (lmax 390 nm), the product of its hydrolysis is red (lmax 486 nm, 17,000 M-1). AmpC beta lactamase was provided by Brian Shoichet and Brian Feng, UCSF.
NCGC Assay Protocol Summary:
20 mM phosphate buffer, pH 7.0
Triton X-100: No Detergent screen: 0.0001%, Detergent screen: 0.01%.
Buffer in columns 3 and 4 as negative control (no enzyme).
5.3 nM AmpC in columns 1, 2, 5-48. Titration of UCSF compound 9 control (from 10 mM, then 1:2) pin-transferred to column 2. Column 1 is neutral (100% activity).
Six uL of reagents were dispensed to 1536-well Greiner black clear bottom plates. Compounds and controls (23 nL) were transferred via Kalypsys PinTool. The plates were incubated for 15 min at room temperature, and then 2 uL of 800 uM solution of nitrocefin was added to start the reaction. The plates were immediately transferred to and read every 20 seconds for 4 min on ViewLux (Perkin-Elmer) High-throughput CCD imager using 480 nm absorbance protocol. During dispense, reagent bottles were kept submerged into 4 deg C water bath.
Keywords: NIH Roadmap, MLSCN, MLI, MLSMR, qHTS, NCGC, AmpC Beta-Lactamase, Aggregation.

[1] = at 28.7 µM (top of the series) unless noted

O=P1(Nc2nc3ccc(Cl)cc3s2)COc2ccccc2O1 (centres undefined)
activity change, negative = inhibition [1]: inactive: -10.8%

CP(=O)(Nc1ccccc1F)Oc1ccccc1 (centres undefined)
activity change, negative = inhibition [1]: inactive: -17.6%

COC(=O)c1cc2c(s1)N=C(c1ccccc1)N(C)P2(=O)N1CCOCC1 (centres undefined)
activity change, negative = inhibition [1]: inactive: 21.5%

Cc1cccc([N+](=O)[O-])c1[N+](=O)[O-]
activity change, negative = inhibition [1]: inactive: -9%

CCC(C)(OO)OOC(C)(CC)OO (centres undefined)
activity change, negative = inhibition [1]: inactive: 9.6%

Cc1c([N+](=O)[O-])cccc1[N+](=O)[O-]
activity change, negative = inhibition [1]: inactive: -4.8%

Cc1ccc([N+](=O)[O-])c([N+](=O)[O-])c1
activity change, negative = inhibition [1]: inactive: -0.5%

O=C(OC1CN2CCC1CC2)c1cccc(Cl)c1 (centres undefined)
activity change, negative = inhibition [1]: inactive: -5.9%

CN(C)CCOC(=O)C(O)(c1ccccc1)C1CCCCC1 (centres undefined)
activity change, negative = inhibition [1]: inactive: 16.5%

Cc1cc([N+](=O)[O-])cc([N+](=O)[O-])c1O
activity change, negative = inhibition [1]: inactive: -8.1%

[N-]=[N+]=Nc1ccc([As](=O)(O)O)cc1
activity change, negative = inhibition [1]: inactive: -6.4% [at 5.75 µM]

CN1CCC[C@H](OC(=O)C(c2ccccc2)c2ccccc2)C1
activity change, negative = inhibition [1]: inactive: 0.7% [at 5.75 µM]

CP(=O)(Nc1ccc2c(c1)OCCO2)Oc1ccccc1 (centres undefined)
activity change, negative = inhibition [1]: inactive: 0%

[NH4+].[O-][Cl+3]([O-])([O-])[O-]
activity change, negative = inhibition [1]: inactive: -7.7%

C[C@@H](O)COc1ccc([As](=O)(O)O)cc1N
activity change, negative = inhibition [1]: inactive: 4.9% [at 5.75 µM]

Cc1ccccc1NP(C)(=O)Nc1ccccc1C
activity change, negative = inhibition [1]: inactive: 17.6%

NNC(NN)NN.n1nc(-c2nn[nH]n2)n[nH]1
activity change, negative = inhibition [1]: inactive: -2.3% [at 5.75 µM]

O=P(Nc1nccs1)(c1ccccc1)c1ccccc1
activity change, negative = inhibition [1]: inactive: -3.4%

CCOP(C)(=S)SCC(=O)NC(C)(CC)C(=O)O (centres undefined)
activity change, negative = inhibition [1]: inactive: 1.4%

CCOP(=O)(CC)OCC
activity change, negative = inhibition [1]: inactive: -18.5%

O=C(CO)Nc1ccc([As](=O)(O)O)cc1
activity change, negative = inhibition [1]: inactive: 4.1% [at 5.75 µM]

N#[O+].[C-]#N.[C-]#N.[C-]#N.[C-]#N.[C-]#N.[Fe+2].[Na+].[Na+]
activity change, negative = inhibition [1]: inactive: -77.6%

COc1ccccc1OP(C)(=O)Nc1c(C)n(C)n(-c2ccccc2)c1=O (centres undefined)
activity change, negative = inhibition [1]: inactive: -16.3%

CCc1nc2c(n1)c1c(non1O)c1c2no[n+]1[O-]
activity change, negative = inhibition [1]: inactive: -2.7%

CP(=O)(Oc1ccccc1)N1CCOC1=O (centres undefined)
activity change, negative = inhibition [1]: inactive: 4.5%

C/C1=C2N=C(/C=C3N=C(/C(C)=C4\[N-][C@@](C)([C@H]5N=C1[C@@](C)(CCC(=O)NC[C@H](C)OP(=O)([O-])O[C@@H]1[C@H](O)[C@H](n6cnc7cc(C)c(C)cc76)O[C@@H]1CO)[C@@H]5CC(N)=O)[C@](C)(CC(N)=O)[C@H]4CCC(N)=O)[C@@](C)(CC(N)=O)[C@@H]\3CCC(N)=O)C(C)(C)[C@@H]/2CCC(N)=O.[C-]#N.[Co+3]
activity change, negative = inhibition [1]: inactive: 8.7% [at 12.8 µM]

CN(C(=O)Cc1ccccc1)[C@@H]1CC[C@@]2(CCCO2)C[C@H]1N1CCCC1
activity change, negative = inhibition [1]: inactive: 84.2%

Cc1nc2ccc3ccccc3c2o1.O=[N+]([O-])c1cc([N+](=O)[O-])c(O)c([N+](=O)[O-])c1
activity change, negative = inhibition [1]: inactive: -10.6%

[N-]=[N+]=NCC(O)CN=[N+]=[N-] (centres undefined)
activity change, negative = inhibition [1]: inactive: 1.9% [at 5.75 µM]

C(Cc1nn[nH]n1)c1nn[nH]n1
activity change, negative = inhibition [1]: inactive: -2.2% [at 5.75 µM]

COc1ccccc1OP(C)(=O)Nc1ccc(C)c(C)c1 (centres undefined)
activity change, negative = inhibition [1]: inactive: 32.8%

Cc1c2non([O-])c-2c(C)[n+](=O)[n+]1[O-]
activity change, negative = inhibition [1]: inactive: -17%

CP(=O)(Nc1ccccn1)Oc1ccccc1 (centres undefined)
activity change, negative = inhibition [1]: inactive: 5.3%

NCC[C@@H](N)CSP(=O)(O)O
activity change, negative = inhibition [1]: inactive: -0.9% [at 5.75 µM]

O=[N+]([O-])c1ccc(C[As](=O)(O)O)cc1
activity change, negative = inhibition [1]: inactive: 4.2% [at 5.75 µM]

O=[N+]([O-])[O-].[NH4+]
activity change, negative = inhibition [1]: inactive: 0.4%

O=C(OC1CN2CCC1CC2)C12CC3CC(CC(C3)C1)C2 (centres undefined)
activity change, negative = inhibition [1]: inactive: 6.8%

NC(=O)Nc1cc([As](=O)(O)O)cc(I)c1O
activity change, negative = inhibition [1]: inactive: -2.8% [at 5.75 µM]

Cc1ccc(NP(C)(=O)Oc2ccccc2)c(C)c1 (centres undefined)
activity change, negative = inhibition [1]: inactive: 30.7%

COc1ccccc1OP(C)(=O)Nc1ccc(C)cc1 (centres undefined)
activity change, negative = inhibition [1]: inactive: 17.1%

[N-]=[N+]=NCC(N)=O
activity change, negative = inhibition [1]: inactive: 6.2% [at 5.75 µM]

O=[As]c1ccc(S(=O)(=O)NCCO)cc1 (centres undefined)
activity change, negative = inhibition [1]: inactive: -2.8% [at 5.75 µM]

CP(=S)(Nn1cnnc1)Oc1ccccc1 (centres undefined)
activity change, negative = inhibition [1]: inactive: -3.1%

CN(N=O)C(=N)N[N+](=O)[O-]
activity change, negative = inhibition [1]: inactive: -9.6%

N1=C(c2nnc(-c3nn[nH]n3)nn2)NNN1
activity change, negative = inhibition [1]: inactive: 0.8% [at 5.75 µM]

CCOP(C)(=S)SCC(=O)NC(C)C(=O)O (centres undefined)
activity change, negative = inhibition [1]: inactive: -9.2%

COP1(=S)c2c(C)nn(CCC#N)c2N=C(c2ccc(F)cc2)N1C (centres undefined)
activity change, negative = inhibition [1]: inactive: 42.6%

CP(=O)(NC(=O)Nc1ccccc1)Oc1ccccc1 (centres undefined)
activity change, negative = inhibition [1]: inactive: -7.3%

O=C(COc1ccccc1)OC1CN2CCC1CC2 (centres undefined)
activity change, negative = inhibition [1]: inactive: -4.2%

O=C(O)[C@@H](O)c1ccc([As](=O)(O)O)cc1
activity change, negative = inhibition [1]: inactive: 2.9% [at 5.75 µM]

Cc1nc2ccc3ccccc3c2s1.O=[N+]([O-])c1cc([N+](=O)[O-])c(O)c([N+](=O)[O-])c1
activity change, negative = inhibition [1]: inactive: -2.3%

CN(CCCl)Cc1cc(Cl)c(NC2=NCCN2)c(Cl)c1
activity change, negative = inhibition [1]: inactive: -5.2%

O=P1(Nc2ccccn2)COc2ccccc2OC1
activity change, negative = inhibition [1]: inactive: -6.8%

Clc1n[nH]nc1-c1nn[nH][15n]1
activity change, negative = inhibition [1]: inactive: 0.9%

O=P1(Nc2ncccn2)COc2ccccc2OC1
activity change, negative = inhibition [1]: inactive: -10.6%

O=P1(Nc2ccc(Br)cn2)COc2ccccc2OC1
activity change, negative = inhibition [1]: inactive: 2.1%

Cc1nn(-c2ccccc2)c2c1P(=O)(N1CCOCC1)N(C)C(c1ccccc1)=N2 (centres undefined)
activity change, negative = inhibition [1]: inactive: 103%

NC(=O)Nc1ccc([As](=O)(O)O)cc1
activity change, negative = inhibition (at 12.8 µM (top of the series)): inactive: -1.7%
activity change, negative = inhibition (at 28.7 µM (top of the series)): inactive: 16.4%

Cc1ccc([N+](=O)[O-])cc1[N+](=O)[O-]
activity change, negative = inhibition [1]: inactive: 9.3%

CCOP1(=S)c2c(C)nn(CCC#N)c2N=C(c2ccc(F)cc2)N1C (centres undefined)
activity change, negative = inhibition [1]: inactive: 72.6%

O=[N+]([O-])c1cccc([N+](=O)[O-])c1
activity change, negative = inhibition [1]: inactive: -8.5%

O=P(Nc1nccs1)(c1ccccc1)c1nc2ccccc2s1 (centres undefined)
activity change, negative = inhibition [1]: inactive: -2.1%

CCOP1(=S)c2c(C)nn(CCC#N)c2N=C(c2ccccc2F)N1C (centres undefined)
activity change, negative = inhibition [1]: inactive: 76.9%

O=[As](O)(O)c1ccc([As](=O)(O)O)cc1
activity change, negative = inhibition [1]: inactive: -3% [at 5.75 µM]

Cc1ccc(C)c(NP(C)(=O)Oc2ccccc2)c1 (centres undefined)
activity change, negative = inhibition [1]: inactive: 27.2%

NS(=O)(=O)Cc1ccc([As](=O)(O)O)cc1
activity change, negative = inhibition [1]: inactive: -0.3% [at 5.75 µM]

O=C(CC(=O)c1ccccc1)O[C@H]1CN2CCC1CC2
activity change, negative = inhibition [1]: inactive: 16% [at 5.75 µM]

CN(C(=O)Cc1ccc(Cl)c(Cl)c1)[C@@H]1CC[C@@]2(CCCO2)C[C@H]1N1CCCC1
activity change, negative = inhibition [1]: inactive: 15.4%
